Laboratory results reported in ChEMBL document CHEMBL1129997 (J Med Chem, 1997).

Biological target: T1, Modulator of drug activity A (Escherichia coli O157:H7) (UniProt Q8X6S1)
T1 sequence (whole entry): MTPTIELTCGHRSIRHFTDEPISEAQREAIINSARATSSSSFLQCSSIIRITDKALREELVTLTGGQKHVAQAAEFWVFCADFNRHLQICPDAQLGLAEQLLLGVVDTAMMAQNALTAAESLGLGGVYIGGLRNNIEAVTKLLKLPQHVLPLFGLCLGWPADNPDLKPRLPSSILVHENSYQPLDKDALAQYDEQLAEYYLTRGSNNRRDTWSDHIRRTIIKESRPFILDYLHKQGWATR
Assay: IC50 ratio for NR-positive and NR-negative cell lines
Type: functional

Row | SMILES | Ratio
1 | O=C(NCC(O)CO)c1cc(N(CCI)CCI)c([N+](=O)[O-])cc1[N+](=O)[O-] (configuration not stated) | 417
2 | CS(=O)(=O)CCN(CCCl)c1cc(C(N)=O)c([N+](=O)[O-])cc1[N+](=O)[O-] | > 295
3 | CS(=O)(=O)CCN(CCS(C)(=O)=O)c1cc(C(N)=O)c([N+](=O)[O-])cc1[N+](=O)[O-] | > 110
4 | O=C(NCC(O)CO)c1cc([N+](=O)[O-])cc([N+](=O)[O-])c1N(CCCl)CCCl (configuration not stated) | 75
5 | NC(=O)c1cc([N+](=O)[O-])cc([N+](=O)[O-])c1N(CCI)CCI | 580
6 | NC(=O)c1cc(N2CC2)c([N+](=O)[O-])cc1[N+](=O)[O-] [TRETAZICAR] | 177
7 | NC(=O)c1cc([N+](=O)[O-])cc([N+](=O)[O-])c1N(CCBr)CCBr | 92
